A mixed list of measured activities; the numbers were collected in NIAID ChemDB.

Shared fields: tests in culture; organism: Herpes simplex virus 1; method: cytopathic effect; measure: EC50

ECn is the concentration giving n% inhibition of infection, replication or growth. Blank or dashed fields: not listed here. Lines come from different laboratories, so protocols vary.

SMILES,cells,strain,mutations,value
CC1(CO)CCC(Cn2cnc3c(N)nc(N)nc32)C1(C)C,E6SM,TK-/B2006,,>100 µg/mL
Nc1ccn([C@@H]2O[C@H](CO)[C@@H](O)[C@@H]2O)c(=O)n1,ESM,KOS,,0.02 µg/mL
O=C1c2ccccc2C(=O)N1CCCC1=NNC(=Nc2ccccc2)SC1,VERO,VR733,,25.68 µg/mL
O=c1[nH]c(=O)n([C@H]2C[C@H](O)[C@@H](COP(=O)(O)O)O2)cc1I,E6SM,KOS,,0.2 µg/mL
COC1c2ccccc2C(=O)N1C(C)C1=NNC(=Nc2ccccc2)SC1,VERO,VR733,,37.03 µg/mL
O=c1[nH]c(=O)n([C@H]2C[C@H](O)[C@@H](CO)O2)cc1/C=C/Br,PRK,McIntyre,,0.02 µg/mL
O=c1[nH]c(=O)n([C@@H]2O[C@H](CO)[C@@H](O)[C@@H]2O)cc1/C=C/Br,HeLa,KOS,,0.07 µg/mL
O=c1[nH]n2c(-c3cn(-c4ccccc4)nc3-c3ccccc3)nnc2sc1=O,HEL,KOS,,>80 µg/mL
O=Cc1cn([C@H]2C[C@H](O)[C@@H](CO)O2)c(=O)[nH]c1=O,PRK,McIntyre,,0.7 µg/mL
O=c1[nH]c(=O)n([C@H]2C[C@H](O)[C@@H](CO)O2)cc1/C=C/Br,PRK,VMW1837 (TK-),,150 µg/mL
CCCc1cn([C@H]2C[C@H](O)[C@@H](COP(=O)(O)O)O2)c(=O)[nH]c1=O,PRK,McIntyre,,2.6 µg/mL
O=c1[nH]c(=O)n([C@H]2C[C@H](O)[C@@H](CO)O2)cc1I,PRK,VDO374,,0.1 µg/mL
Nc1nc(=O)n([C@H]2C[C@H](O)[C@@H](CO)O2)cc1/C=C\Cl,PRK,F,,2 µg/mL
CC(=O)c1ccc(NC(=O)CN2C(=O)c3ccccc3S2(=O)=O)cc1,HEL,KOS,TK-deficient acyclovir-resistant,>100 µM
O=c1[nH]c(=O)n([C@@H]2O[C@H](CO)[C@@H](O)[C@@H]2O)cc1/C=C/Br,PRK,KOS,,0.1 µg/mL
O=c1c2ncn(COCCO)c2nc2[nH]c(-c3ccccc3)c(Cc3ccc(F)cc3)n12,HEL,McIntyre,,>16 µg/mL
C/C(=N/Nc1nc(-c2ccc(C)cc2)cs1)c1ccc(NC(=O)CN2C(=O)c3ccccc3S2(=O)=O)cc1,HEL,KOS,,20 µM
CC1(CO)CCC(Cn2cnc3c(Cl)nc(N)nc32)C1(C)C,E6SM,TK-/B2006,,>200 µg/mL
CC1(CO)CCC(Cc2nc3ncnc(N)c3[nH]2)C1(C)C,E6SM,TK-/B2006,,>200 µg/mL
O=c1c2ncn(COC(CO)CO)c2nc2[nH]c(-c3ccc(F)cc3)cn12,HEL,McIntyre,,0.384 µg/mL
CC1(CO)CCC(Cn2cnc3c(=O)[nH]cnc32)C1(C)C,E6SM,TK-/B2006,,>200 µg/mL
OC[C@H]1O[C@@H](c2cc(C(O)CBr)c(F)cc2F)C[C@@H]1O,E6SM,TK-deficient acyclovir-resistant,,>3.2 µg/mL
O=c1[nH]c(=O)n([C@H]2C[C@H](O)[C@@H](CO)O2)cc1/C=C/Br,HSF,KOS,,0.01 µg/mL
Nc1ncnc2c1ncn2[C@@H]1O[C@H](COP(=O)(O)O)[C@@H](O)[C@H]1O,PRK,,,>400 µg/mL
CSCc1cn([C@H]2C[C@H](O)[C@@H](CO)O2)c(=O)[nH]c1=O,PRK,VEX142,,10 µg/mL
Nc1nc(=O)n([C@@H]2O[C@H](CO)[C@@H](O)[C@@H]2F)cc1I,T-21,KOS,,0.02 µg/mL
Nc1nc2c(ncn2COCCO)c(=O)[nH]1,HFF,15990BW-S (acyclovir-susceptible),,0.5 µg/mL
O=c1[nH]c(=O)n([C@H]2C[C@H](O)[C@@H](CO)O2)cc1CN1CCCC1,HSF,KOS,,>200 µg/mL
CCc1cn([C@H]2C[C@H](O)[C@@H](CO)O2)c(=O)[nH]c1=O,PRK,KOS,,0.7 µg/mL
CC(C)NS(=O)(=O)c1ccccc1C(=O)N/N=C/c1ccccc1,HEL,KOS,TK-deficient acyclovir-resistant,>100 µM
Cc1cn([C@@]2(CO)C[C@H](O)[C@@H](CO)S2)c(=O)[nH]c1=O,HEL,,,>100 µg/mL
Nc1ncnc2c1ncn2[C@@H]1C=C(CO)[C@@H](O)[C@H]1O,E6SM,B2006 (TK-),,20 µg/mL
c1ccc(-c2nn3c(-c4cn(-c5ccccc5)nc4-c4ccccc4)nnc3s2)cc1,HEL,KOS,,>3.2 µg/mL
O=c1[nH]c(=O)n([C@H]2C[C@H](O)[C@@H](COP(=O)([O-])OP(=O)([O-])OC[C@@H]3OC(O)[C@H](O)[C@H](O)[C@H]3O)O2)cc1I,PRK,KOS,,0.4 µg/mL
Nc1nc(=O)n([C@H]2C[C@H](O)[C@@H](CO)O2)cc1/C=C/Cl,PRK,F,,0.07 µg/mL
O=c1[nH]c(=O)n([C@H]2C[C@H](O)[C@@H](CO)O2)cc1/C=C/Br,Primary rabbit kidney cells,McIntyre,,0.02 µg/mL
OC[C@H]1O[C@@H](c2cc(C(O)CI)c(F)cc2F)C[C@@H]1O,E6SM,VMW 1837,,>16 µg/mL
CC(=O)NS(=O)(=O)c1cc(C)c(NC(=O)CN2C(=O)c3ccccc3S2(=O)=O)cc1C,HEL,KOS,TK-deficient acyclovir-resistant,>100 µM
CC1(CO)CCC(Cn2nnc3c(N)ncnc32)C1(C)C,E6SM,TK-/B2006,,>100 µg/mL
CC1(CO)CCC(Cn2cnc3c(=O)[nH]c(N)nc32)C1(C)C,E6SM,KOS,,>400 µg/mL
O=c1c2ncn(COCCO)c2nc2[nH]c(-c3ccccc3)c(Cc3ccccc3)n12,HEL,McIntyre,,>16 µg/mL
CCOC(=O)C1Sc2nnc(-c3cn(-c4ccccc4)nc3-c3ccccc3)n2NC1=O,HEL,KOS (TK-),,>80 µg/mL
O=c1[nH]c(=O)n([C@H]2C[C@H](O)[C@@H](CO)O2)cc1I,PRK,F,,0.1 µg/mL
Nc1ccn(C[C@@H](CO)OCP(=O)(O)O)c(=O)n1,HEL,KOS,TK-deficient acyclovir-resistant,0.9 µM
Nn1c(-c2cn(-c3ccccc3)nc2-c2ccccc2)n[nH]c1=S,HEL,KOS (TK-),,>80 µg/mL
CCc1cn([C@H]2C[C@H](O)[C@@H](COP(=O)(O)O)O2)c(=O)[nH]c1=O,PRK,KOS,,1.4 µg/mL
Nc1ncnc2c1ncn2C[C@@H](CO)OCP(=O)(O)O,PRK,5 (PAA-resistant),,0.3 µg/mL
Cc1ccc(C)c(NC(=O)CN2C(=O)c3ccccc3S2(=O)=O)c1,HEL,KOS,TK-deficient acyclovir-resistant,>100 µM
CC(C1=NN=C(N(Cc2ccccc2)c2ccccc2)SC1)N1C(=O)c2ccccc2C1=O,VERO,VR733,,47.72 µg/mL
Cc1ccn2c(CSCCO)cnc2c1,E6SM,VMW1837 (TK-),,>200 µg/mL
O=c1c2ncn(COCCO)c2nc2[nH]c(-c3ccc(C(F)(F)F)cc3)cn12,HEL,McIntyre,,>16 µg/mL
CC(C1=NNC(=Nc2ccc(F)cc2)SC1)N1C(=O)c2ccccc2C1=O,VERO,VR733,,>37.03 µg/mL

A second listing of 4 rows from above:

SMILES,cells,strain,mutations,value
Nc1nc(=O)n([C@H]2C[C@H](O)[C@@H](CO)O2)cc1/C=C\Cl,PRK,F,,2 µg/mL
O=c1[nH]c(=O)n([C@H]2C[C@H](O)[C@@H](CO)O2)cc1/C=C/Br,Primary rabbit kidney cells,McIntyre,,0.02 µg/mL
CC1(CO)CCC(Cn2cnc3c(=O)[nH]c(N)nc32)C1(C)C,E6SM,KOS,,>400 µg/mL
CC1(CO)CCC(Cn2nnc3c(N)ncnc32)C1(C)C,E6SM,TK-/B2006,,>100 µg/mL